Anti-infective test results gathered from many reports (values: NIAID ChemDB through PubChem).

Common to all: host cell toxicity; cell line: HepG2; endpoint: CC50

An empty or dashed field is not shown.

smiles | read by | result
CC(=O)NC1CCC(n2c(NC(C)C)nc3c(c2=O)C[C@@H](C)N(C(=O)c2ccc(Cl)c(C(F)(F)F)c2)C3)CC1 | luminescence | 43.7 µM
FC(F)(F)c1cccc(Cc2ccc3c(NCCCNCc4ccco4)ccnc3c2)c1 | fluorescence | 3.19 µM
Cc1cc(NC(=O)c2c(C)c(C(=O)C(=O)NC3CCC(OCC(=O)O)CC3)n(C)c2C)ccc1F | MTT | >30 µM
CCOC(=O)CCCCCOc1cccc(C=O)c1 | - | >20 µM
CNC(=O)c1ccc(-n2c(NC(C)C)nc3c(c2=O)C[C@@H](C)N(C(=O)c2ccc(Cl)c(C(F)(F)F)c2)C3)cc1 | luminescence | >50 µM
COc1cccc(CNCCCNc2ccnc3cc(-c4cccc5ccccc45)ccc23)c1O | fluorescence | 2.52 µM
CCOC(=O)CCCCCOc1cccc(CN(C(=O)c2ccc(-c3cccc(O)c3)cc2)C(C)C)c1 | - | >20 µM
Cc1c(C(=O)NCc2noc(C(F)(F)F)n2)c(C)n(C)c1C(=O)C(=O)NC(C)(C)C | MTT | >30 µM
CNC(=O)c1ccc(-n2c(NC(C)C)nc3c(c2=O)C[C@@H](C)N(C(=O)c2ccc(Cl)c(C(F)(F)F)c2F)C3)cc1 | luminescence | >50 µM
CCOC(=O)CCCCCOc1cccc(CN(C(=O)c2ccc(-c3cc(OC)ccc3F)cc2)C(C)C)c1 | - | >20 µM
Cc1cc(NC(=O)c2c(C)c(C(=O)C(=O)NC3(C)CC(O)C3)n(C)c2C2CCCC2)ccc1F | MTT | >30 µM
CNC(=O)[C@@H]1CC[C@H](n2c(NC(C)C)nc3c(c2=O)C[C@@H](C)N(C(=O)c2ccc(Br)c(C(F)(F)F)c2)C3)C1 | luminescence | 16.3 µM
COc1cccc(CNCCCNc2ccnc3cc(C4CCCCC4)ccc23)c1O | fluorescence | 1.08 µM
CC(C)N(Cc1cccc(OCCCCCC(=O)OC(=O)O)c1)C(=O)c1ccc(-c2cccc(Cl)c2)cc1 | - | >20 µM
Cc1c(C(=O)Nc2cc(Cl)nc(Cl)c2)c(C)n(C)c1C(=O)C(=O)N[C@H](C)C(F)(F)F | MTT | >30 µM
CCOC(=O)COc1ccccc1CN(C(=O)c1ccc(-c2ccc3c(c2)OCO3)cc1)C(C)C | - | >20 µM
Cc1cc(NC(=O)c2c(C3CC3)c(C(=O)C(=O)NC3CCN(c4cccnn4)CC3)n(C)c2C)ccc1F | MTT | >30 µM
CC(C)N(Cc1cccc(OCCCCCC(=O)OC(=O)O)c1)C(=O)c1ccc(-c2ccc3cc[nH]c3c2)cc1 | - | >20 µM
COc1cccc(Oc2ccc3c(NCCCNCc4cc(F)ccc4OC)ccnc3c2)c1 | fluorescence | 7.1 µM
COc1cc2c(cc1OC)C(C)=NCC2 | - | <7.5 µM
CNC(=O)c1c(Cl)c(-n2c([C@@H](O)C(C)C)nc3c(c2=O)C[C@@H](C)N(C(=O)c2ccc(Br)c(C(F)(F)F)c2)C3)nn1C | luminescence | >50 µM
CCC(CC)c1ccc2c(NCCCNCc3ccco3)ccnc2c1 | fluorescence | 6.76 µM
CC(=O)N1CC[C@H](NC(=O)C(=O)c2c(C)c(C(=O)Nc3ccc(F)c(C)c3)c(C)n2C)C[C@@H]1C | MTT | >30 µM
COc1ccccc1Oc1ccc2c(NCCCNCc3cccc(OC)c3O)ccnc2c1 | fluorescence | 11.2 µM
CC(C)N(Cc1cccc(OCCCCCC(=O)OC(=O)O)c1)C(=O)c1ccc(-c2ccc3c(c2)OCCO3)cc1 | - | >20 µM
Cc1cc(NC(=O)c2c(C)c(C(=O)C(=O)N3CCOCC3)n(C)c2C)ccc1F | MTT | >30 µM
CC(C)COc1cccc(-c2ccc(C(=O)N(Cc3cccc(OCCCCCC(=O)OC(=O)O)c3)C(C)C)cc2)c1 | - | >20 µM
FC(F)(F)c1cc(-c2ccc3c(NCCCNCc4ccco4)ccnc3c2)cc(C(F)(F)F)c1 | fluorescence | 2.41 µM

Neighbouring rows are from separate reports. CCn is the concentration with n% toxicity to the cells.